Source: paper PMC12707362, “Targeting Aurora Kinases as Essential Cell‐Cycle Regulators to Deliver Multi‐Stage Antimalarials Against Plasmodium Falciparum” (Angewandte Chemie (International Ed. in English), 2025)

Tested on: pool of barcoded drug-resistant P. falciparum parasites (Dd2 and 3D7 backgrounds)
Type: cell-based, Plasmodium falciparum
Details: 3xIC50, 14 days
Protocol: The pool consisted of 52 lines (Supplementary File S2) in both the Dd2 and 3D7 backgrounds, including wild-type, that were barcoded at the pfpare locus (PF3D7_0709700)^[18], with unique 11-bp barcode sequences. The pool (triplicate cultures of 1 mL) was exposed to 3 xIC50 of each test compound, including the positive control compound halofuginone that targets prolyl tRNA synthetase. Growth of the pool was measured every 2–3 days by flow cytometry (Beckman CytoFlex 5), staining with 1xSYBR Green I and 200 nM MitoTracker Deep Red, and parasitemia maintained within a range <5% parasitemia. At day 14, samples were harvested, lysed with 0.05% saponin and parasite pellets collected. Barcodes were amplified by PCR and quantified by sequencing using an Oxford Nanopore minION. The change in barcode proportion (log2 fold change, LFC) was measured relative to the no-drug control, with LFC>2.5 indicating cross-resistance.

Structure (SMILES): COc1cc(N2CCC(N3CCN(C)CC3)CC2)ccc1Nc1ncc(Cl)c(Nc2ccccc2S(=O)(=O)C(C)C)n1 [TAE684, NVP-TAE684]
- cross-resistance with known antimalarial resistance mechanisms: no cross‐resistance
